PubChem BioAssay AID1224833, University of Georgia | 2016
Screen: 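Host factors restraining rotavirus as candidate antiviral genes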 (primary screen). System: monkey MA104 kidney cells. Knock-down reagent: siRNA pool against human genes, 50 nM. Time to read-out: 48 h knock-down before infection; read 24 h after infection. Conditions: infection with rotavirus strain RV3 two days after transfection; infectious dose for this stage not given. Detection: 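z-score of rotavirus antigen signal per well, from a fluorescent immunoassay, relative to non-targeting control wells on the same plate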. Scale: z-score vs non-targeting control: higher = more rotavirus replication than with non-targeting control. Rule for the call: In these data the active calls have z-score vs non-targeting control at about -1 or lower, or at about 1 or higher. Meaning of the calls: active = z-score beyond 1 either way; inactive = z-score within 1 of zero.
The deposit covers about 12,000 reagents; below is a random part of them. About 5,600 of all reagents (46%) count as active. 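Active calls cover z-scores past 1 in both directions, so they include lowered as well as raised rotavirus replication.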 A number with no mark means an inactive call.

gene | z-score vs non-targeting control
CD200R1L | 0.737
SLC35E1 | 0.94
PI3 | -0.551
OR1L3 | 1.22 (active)
RAB11FIP1 | 1.31 (active)
RNF213 | -1.35 (active)
ZNF266 | -0.836
STIM1 | -0.153
ANKRD9 | 0.578
ZNF385A | -0.987
TPPP | -0.761
KRTAP5-3 | 1.78 (active)
CSTA | -0.929
LIPE | 0.9
HAPLN3 | 0.581
ATOX1 | -0.809
CTF1 | -5.71 (active)
TSEN34 | -2.75 (active)
POLR1E | 0.623
CALML6 | 0.839
MTUS2 | 0.571
PCDH20 | 1.1 (active)
CBARP | 1.12 (active)
EPN3 | 0.157
ZDHHC7 | -0.385
HSPE1 | -1.09 (active)
ZNF211 | 0.146
MT1H | -1.18 (active)
DSG1 | -0.209
NEXN | 0.62
SBSPON | 1.62 (active)
SYTL5 | 0.547
NUP43 | -1.23 (active)
SUSD3 | -0.33
INKA1 | -1.26 (active)
ST8SIA5 | 0.94
MRTO4 | -0.378
PROSER1 | -0.765
SYNRG | -0.204
C19orf12 | 0.545
TSPAN15 | -0.445
WAC | -1.53 (active)
SLC22A1 | 1.32 (active)
SART3 | -0.919
ZRANB3 | -2.36 (active)
WDR55 | -1.21 (active)
VPS28 | -1.2 (active)
LETM1 | 0.0055
PRR25 | -1.86 (active)
FRS3 | -0.139
MGME1 | -0.0694
LHX9 | -1.72 (active)
CABYR | 0.29
SULF2 | -0.24
SLC22A3 | -0.658
TOR1AIP2 | 1.01 (active)
PLEKHA4 | 0.621
LRATD1 | -0.141
CA14 | -0.906
IGFBPL1 | 1.15 (active)
WDR81 | -0.641
QKI | -1.02 (active)
CHI3L2 | -0.971
SCAPER | 0.214
RASD2 | -0.417
A4GNT | 1.6 (active)
CTSE | 0.681
NR3C2 | -1.52 (active)
FEM1B | -1.52 (active)
FCGR2A | -0.944
ZMYND8 | -0.571
SDK1 | -1.58 (active)
USP19 | 1.18 (active)
CA3 | -2 (active)
METAP2 | 0.622
GSTP1 | 0.749
TIMP2 | -1.4 (active)
OSBPL5 | -0.565
SLC2A4 | -2.23 (active)
KNG1 | -0.791
POLR3E | 0.917
SGSM2 | -0.451
NAIF1 | -0.652
MET | 3.14 (active)
ZNF133 | -0.354
PARP16 | -0.878
NDUFAF5 | 0.598
TIPE3 | -1.02 (active)
ZBTB39 | -0.0725
TMEM60 | -0.199
CDC50A | -1.21 (active)
VPS29 | -1.16 (active)
PIDD1 | 1.94 (active)
NDUFAF1 | 0.564
SFPQ | -0.811
S100Z | -1.35 (active)
CUTC | -1.73 (active)
MYO16 | -1.27 (active)
ACCSL | -1.37 (active)
SDCCAG8 | -0.988
GPRC6A | 1.38 (active)
MAGEE1 | 0.437
KLRC4 | -3.5 (active)
MVD | 0.0613
BAZ2A | -0.884
SLC2A4RG | -0.657
DEFA1 | -1.64 (active)
TMEM53 | -2.07 (active)
TM7SF3 | -1.17 (active)
ANKS1B | -0.0936
FAM9A | 0.126
EIF4A3 | 1.25 (active)
FAM228A | 1.06 (active)
ARL15 | 0.0746
PELI1 | -0.446
KCTD18 | -1.22 (active)
RARRES1 | 0.847
CLEC2D | -1.54 (active)
SLC35D1 | -3.11 (active)
NAT8 | 1.6 (active)
ZNF596 | -0.74
CENPW | -0.0411
PGM2 | 0.573
FOSB | 1.32 (active)
TMEM43 | -1.18 (active)
OMP | -0.0853
MAD1L1 | 1.3 (active)
NCK2 | -0.974
HNRNPM | -0.66
GDF7 | 2.07 (active)
SLC35C1 | -0.747
DUOX2 | -1.9 (active)
ATP5MK | -0.768
DLEC1 | 0.898
CTAGE4 | 0.64
NDUFV1 | 1.5 (active)
CDC42 | 0.574
TEX12 | -0.469
RTRAF | -0.812
ACO2 | 0.608

No new results follow: 9 of the entries above.
gene | z-score vs non-targeting control
ZRANB3 | -2.36 (active)
WDR55 | -1.21 (active)
VPS28 | -1.2 (active)
LETM1 | 0.0055
PRR25 | -1.86 (active)
FRS3 | -0.139
MGME1 | -0.0694
LHX9 | -1.72 (active)
CABYR | 0.29
